Results from ChEMBL document CHEMBL1687783, “Prevalence and dissemination of oqxAB in Escherichia coli isolates from animals, farmworkers, and the environment” (2010).

Key:
[1] = tested on: Escherichia coli; details: C600 X1B1-T
[2] = tested on: Escherichia coli; details: C600 G262-T
[3] = tested on: Escherichia coli; details: C600 XT11-T
[4] = tested on: Escherichia coli; details: C600 G062-T
[5] = tested on: Escherichia coli; details: C600 W281-T

Measured: MIC

GENTAMICIN
0.5 µg/mL: all assays above
